Compound potency records, mixed from different reports. Data source: NIAID ChemDB in PubChem.

Common to all: host cell toxicity; cell line: HepG2.2.15; read-out: CC50

An empty or dashed field is not shown. CCn: concentration that lowers growth or viability of the cells by n%. Rows are shuffled and stem from different studies.

SMILES,method,result
O=C(CNC(=O)c1ccccn1)Nc1ccc(Cl)nc1Cl,MTS,227 µM
CCCC(=O)O[C@@H](C[C@@H](C)C1=C2C[C@H](OC(=O)CCC)[C@H]3[C@@]4(C)CCC(=O)C(C)(C)[C@@H]4CC[C@]3(C)[C@@]2(C)CC1)[C@@H](OC(=O)CCC)C(C)(C)OC(=O)CCC,-,>1800 µM
CCOC(=O)C1=C(CN2CCN(C)CC2)NC(c2c(F)cc(F)cc2F)=NC1c1ccc(F)cc1Cl,MTT,98.74 µM
CC(C)=CCC[C@]1(C)CC[C@]2(C)[C@H]3CC[C@@]4(C)[C@@H](CC[C@H](O)[C@@H]4C)[C@]3(C)CC[C@@]2(C)C1,sulforhodamine,137.7 µM
CC(=O)OC(C)(C)CCC(=O)[C@](C)(O)C1[C@H](O)C[C@@]2(C)[C@@H]3C[C@H]4O[C@@]45[C@@H](C[C@H](O)[C@@H](O)C5(C)C)[C@]3(C)C(=O)C[C@]12C,-,>1745 µM
C[C@H](C[C@H](OC(=O)COc1ccccc1)[C@@H](OC(=O)COc1ccccc1)C(C)(C)OC(=O)COc1ccccc1)C1=C2C[C@H](OC(=O)COc3ccccc3)[C@H]3[C@@]4(C)CCC(=O)C(C)(C)[C@@H]4CC[C@]3(C)[C@@]2(C)CC1,-,>1400 µM
COc1ccc(C(=O)N(C)CC(=O)Nc2ccc(Cl)cc2Cl)cc1,MTS,311 µM
CCOC(=O)C1=C(CN2CCC(C)CC2)NC(c2c(F)cc(F)cc2F)=NC1c1ccc(F)cc1Cl,MTT,32.98 µM
CCOC(=O)C1=C(CN2CC(F)(F)[C@@H]3[C@H]2CON3C[C@H](O)C(C)(C)C(=O)O)NC(c2nccs2)=N[C@@H]1c1ccc(Cl)c(F)c1,WST / absorbance,>50 µM
COCCC1=C(C(=O)OC)[C@H](c2ccc(F)cc2Cl)N=C(c2ncc(F)cc2F)N1,-,38 µM
CCOC(=O)c1c(CSc2ccc(F)cc2)nc2c(O)c(CN3CCCC3)c(Br)cn12,MTT,35.3 µM
C[C@@]12C(=O)N(CCc3ccc(O)cc3)C(=O)[C@]1(C)C1CCC2O1,MTT,0.071 µM
CCOCC1=C(C(=O)OCC)C(c2ccc(F)cc2Cl)N=C(c2ncc(F)cc2F)N1,-,>10 µM
COC(=O)C1=C(CN2CCN(C(=O)Oc3ccccc3)CC2)NC(c2ncc(F)cc2F)=N[C@H]1c1ccc(F)cc1Br,-,8 µM
C[C@]1(CO)O[C@@H](n2ccc(=O)[nH]c2=O)[C@H](O)[C@@H]1O,-,>100 µM
Clc1ccc(COC(Cn2ccnc2)c2ccc(Cl)cc2Cl)c(Cl)c1,MTT,22.5 µM
CC[C@]12CCC(C)(C)CC1[C@]1(CC(=O)O)CC[C@@]3(C)C4C[C@H](O)C(=O)O[C@H](C)[C@@]4(C)CCC3[C@@]1(C)CC2,MTT,84.6 µM
CCOC(=O)C1=C(CN2CC(F)(F)[C@@H]3[C@H]2CON3CC[C@](C)(O)C(=O)O)NC(c2nccs2)=N[C@H]1c1cccc(F)c1C,WST / absorbance,>100 µM
Cc1ccc(CNc2ccc3cc[nH]c3c2)s1,MTT,>28.87 µM
C=C(C)[C@H](CC)CC[C@@H](C)[C@H]1CCC2C3C(=O)C=C4C[C@@H](O)CC[C@]4(C)C3CC[C@@]21C,MTT,483.4 µM
COC(=O)C1=C(CN2CCN(C(=O)OC)CC2)NC(c2ncc(F)cc2F)=NC1c1ccc(F)cc1Br,-,4 µM
C[C@H]1OC(=O)[C@@H](O)CC2[C@]3(C)CC[C@@]4(CC(=O)O)C5CC(C)(C)CC[C@]5(C)CC[C@]4(C)C3CC[C@@]21C,MTT,30.4 µM
Cc1cn([C@H]2O[C@@H](CO)[C@H](O)[C@H]2F)c(=O)[nH]c1=O,-,≥200 µM
CC1(C)[C@@H](O)CC[C@]2(C)[C@H]3C(=O)C=C4[C@@H]5C[C@@](C)(C(=O)OCc6cccc(F)c6)CC[C@]5(C)CC[C@@]4(C)[C@]3(C)CC[C@@H]12,-,>1310 µM
CCCCCCCCCCCCCCCC(=O)O,MTT,1560 µM
CCOCC1=C(C(=O)OC)C(c2ccc(F)cc2Cl)N=C(c2ncc(F)cc2F)N1,-,>100 µM
COCC(=O)O[C@@H](C[C@@H](C)C1=C2C[C@H](OC(=O)COC)[C@H]3[C@@]4(C)CCC(=O)C(C)(C)[C@@H]4CC[C@]3(C)[C@@]2(C)CC1)[C@@H](OC(=O)COC)C(C)(C)O,-,400 µM
COC(=O)C1=C(CN2CC(F)(F)[C@@H]3[C@H]2CON3C[C@H](OC)C(C)(C)C(=O)O)NC(c2nccs2)=N[C@H]1c1cccc(F)c1Cl,WST / absorbance,>100 µM
CCOC(=O)c1c(CSc2ccc(Br)cc2)nc2c(O)c(CN3CCOCC3)c(Br)cn12,MTT,8.2 µM
COC(=O)C1=C(CN2CCC3(CN(C)CCO3)C2)NC(c2ncc(F)cc2F)=N[C@H]1c1ccc(F)cc1Cl,-,25 µM
C[C@H](C[C@H](OC(=O)/C=C/c1ccccc1Cl)[C@@H](OC(=O)/C=C/c1ccccc1Cl)C(C)(C)O)C1=C2C[C@H](OC(=O)/C=C/c3ccccc3Cl)[C@H]3[C@@]4(C)CCC(=O)C(C)(C)[C@@H]4CC[C@]3(C)[C@@]2(C)CC1,-,>1300 µM
CCOC(=O)c1c(CSc2ccccc2)nc2c(O)c(CN3CCCCC3)c(Br)cn12,MTT,14.2 µM
C[C@]1(CO)O[C@@H](n2cc(F)c(=O)[nH]c2=O)[C@H](O)[C@@H]1O,-,>100 µM
C[C@@]12COC(=O)[C@@]1(C)[C@@H](O)C13CC(=O)O[C@@]1(C)CC[C@@]32O,XTT,2540 µM
CC1(C)[C@@H](O)CC[C@]2(C)[C@H]3C(=O)C=C4[C@@H]5C[C@@](C)(C(=O)OCc6cc(F)cc(F)c6)CC[C@]5(C)CC[C@@]4(C)[C@]3(C)CC[C@@H]12,-,>1230 µM
C[C@H](Cn1cnc2c(N)ncnc21)OCP(=O)(O)O,MTT,29.46 µM
C[C@H](C[C@H](OC(=O)/C=C/c1ccccc1)[C@@H](OC(=O)/C=C/c1ccccc1)C(C)(C)OC(=O)/C=C/c1ccccc1)C1=C2C[C@H](OC(=O)/C=C/c3ccccc3)[C@H]3[C@@]4(C)CCC(=O)C(C)(C)[C@@H]4CC[C@]3(C)[C@@]2(C)CC1,-,>1200 µM
CC(C)[C@@H](C)/C=C/[C@@H](C)[C@H]1CCC2C3=C[C@@H](O)[C@@]4(O)C[C@@H](O)CC[C@]4(C)C3CC[C@@]21C,MTT,89.6 µM
C[C@H](C[C@H](OC(=O)c1cccc([N+](=O)[O-])c1)[C@@H](OC(=O)c1cccc([N+](=O)[O-])c1)C(C)(C)OC(=O)c1cccc([N+](=O)[O-])c1)C1=C2C[C@H](OC(=O)c3cccc([N+](=O)[O-])c3)[C@H]3[C@@]4(C)CCC(=O)C(C)(C)[C@@H]4CC[C@]3(C)[C@@]2(C)CC1,-,>1100 µM
CCOC(=O)c1c(CSc2ccc(C)cc2)nc2c(O)c(CN3CCCC3)c(Br)cn12,MTT,25.2 µM
O=C(CNC(=O)Nc1cccc(F)c1)Nc1ccc(Cl)nc1Cl,MTS,259 µM
CC1(C)[C@@H](O)CC[C@]2(C)[C@H]3C(=O)C=C4[C@@H]5C[C@@](C)(C(=O)OCc6ccc(I)cc6)CC[C@]5(C)CC[C@@]4(C)[C@]3(C)CC[C@@H]12,-,>986 µM
C[C@H](Cn1cnc2c(N)ncnc21)OCP(=O)(O)O,MTT,>1740 µM
CCCCC(=O)O[C@@H](C[C@@H](C)C1=C2C[C@H](OC(=O)CCCC)[C@H]3[C@@]4(C)CCC(=O)C(C)(C)[C@@H]4CC[C@]3(C)[C@@]2(C)CC1)[C@@H](OC(=O)CCCC)C(C)(C)O,-,>1300 µM
COC(=O)c1cc(OC)c2c(c1-c1c(C(=O)O[C@H]3[C@H](F)[C@H](n4ccc(N)nc4=O)O[C@@]3(CO)N=[N+]=[N-])cc(OC)c3c1OCO3)OCO2,MTT,965.4 µM
COc1cc2c(c(OC)c1OC)-c1c(cc3c(c1OC)OCO3)C[C@H](C)[C@H](C)[C@@H]2OC,MTT,>1000 µg/mL
C[C@H](C[C@H](OC(=O)C1CC1)[C@@H](OC(=O)C1CC1)C(C)(C)O)C1=C2C[C@H](OC(=O)C3CC3)[C@H]3[C@@]4(C)CCC(=O)C(C)(C)[C@@H]4CC[C@]3(C)[C@@]2(C)CC1,-,>1000 µM
CC(C)(C)C(=O)SCCOP(=O)(OCCOCn1cnc2c(=O)[nH]c(N)nc21)OCCSC(=O)C(C)(C)C,-,1593 µM
CCCC(=O)O[C@H]1CC[C@]2(C)[C@H]3C(=O)C=C4[C@@H]5C[C@@](C)(C(=O)O)CC[C@]5(C)CC[C@@]4(C)[C@]3(C)CC[C@H]2C1(C)C,-,118.8 µM
CC1O[C@H]2[C@@H]3C4=C(C(=O)OCC4=C[C@@]45C6=C(C(=O)OCC6)[C@@H](C[C@@H]34)OC5C)[C@H]3O[C@H](O)[C@@H]1C1=CCOC(=O)[C@@]132,MTT,>2540 µM
CC1(CO)O[C@H](n2cnc3c(N)ncnc32)[C@@H](O)[C@H]1O,-,>100 µM
CC1O[C@@H]2C[C@H]3[C@H]4C5=C(C(=O)OCC5=C[C@]13C1=C2C(=O)OCC1)[C@@H](O)O[C@@H]4c1cccc2c1CCOC2=O,MTT,>1680 µM
C/C=C(/C)C(=O)O[C@@H]1c2cc(OC)c(OC)c(OC)c2-c2c(cc3c(c2OC)OCO3)C[C@H](C)[C@@]1(C)O,MTT,249 µg/mL
CNC(=O)c1cnc(SC)nc1Nc1ccc2cn[nH]c2c1,MTT,>100 µg/mL
CCOC(=O)c1c(CSc2ccc(F)cc2)nc2c(O)c(CN3CCOCC3)c(Br)cn12,MTT,12.6 µM
CCOCC(=O)O[C@H]1C[C@H]2[C@]3(C)C(=O)C[C@]4(C)C([C@@](C)(O)C(=O)CCC(C)(C)OC(C)=O)[C@H](OC(=O)COCC)C[C@@]4(C)[C@@H]3C[C@@H](O)[C@@]2(OC(=O)c2cccc(Cl)c2)C(C)(C)[C@@H]1OC(=O)COCC,-,>710.4 µM
CCOC(=O)c1c(CSc2ccc(C)cc2)nc2c(O)c(CN(C)C)c(Br)cn12,MTT,65.5 µM
COC(=O)C1=C(CN2CCN(C(=O)Oc3ccccc3)CC2)NC(c2ncccc2F)=N[C@H]1c1ccc(F)cc1Br,-,3 µM
CC(=O)O[C@H]1C[C@H]2[C@]3(C)C(=O)C[C@]4(C)C([C@@](C)(O)C(=O)CCC(C)(C)OC(C)=O)[C@H](OC(C)=O)C[C@@]4(C)[C@@H]3C[C@H]3O[C@]32C(C)(C)[C@@H]1OC(C)=O,-,>960.9 µM

For reference, 8 entries again:

CCCC(=O)O[C@H]1CC[C@]2(C)[C@H]3C(=O)C=C4[C@@H]5C[C@@](C)(C(=O)O)CC[C@]5(C)CC[C@@]4(C)[C@]3(C)CC[C@H]2C1(C)C ; result: 118.8 µM
CCOC(=O)c1c(CSc2ccc(C)cc2)nc2c(O)c(CN3CCCC3)c(Br)cn12 ; method: MTT ; result: 25.2 µM
COC(=O)C1=C(CN2CC(F)(F)[C@@H]3[C@H]2CON3C[C@H](OC)C(C)(C)C(=O)O)NC(c2nccs2)=N[C@H]1c1cccc(F)c1Cl ; method: WST / absorbance ; result: >100 µM
Cc1ccc(CNc2ccc3cc[nH]c3c2)s1 ; method: MTT ; result: >28.87 µM
C[C@H](Cn1cnc2c(N)ncnc21)OCP(=O)(O)O ; method: MTT ; result: >1740 µM
CCOC(=O)c1c(CSc2ccccc2)nc2c(O)c(CN3CCCCC3)c(Br)cn12 ; method: MTT ; result: 14.2 µM
COC(=O)C1=C(CN2CCC3(CN(C)CCO3)C2)NC(c2ncc(F)cc2F)=N[C@H]1c1ccc(F)cc1Cl ; result: 25 µM
C[C@]1(CO)O[C@@H](n2ccc(=O)[nH]c2=O)[C@H](O)[C@@H]1O ; result: >100 µM